# Results as given in PubChem BioAssay AID720569 (National Center for Advancing Translational Sciences (NCATS), 2013).
# Only a part is listed here, and it is no random draw. Inconclusive results are not listed. Active and inactive are the calls of the source. Calls come from the whole dose curve; as a rule, active = well fitted inhibition curve with a large enough effect; inconclusive = small, poorly fitted or top-dose-only effect; inactive = no such curve, though single readings can be large or run the other way.
# System: pyruvate kinase (Trypanosoma brucei)
# Assay: qHTS of Trypanosoma Brucei Inhibitors: Confirmatory Assay for Cherry-picked Compounds; note: nearly all actives have a fitted effect of over 70% in size
# Conditions: recombinant TbPYK, Kinase-Glo ATP luminescence
# Description: Members of the Trypanosomatidae family of parasitic protozoans cause a spectrum of diseases throughout the tropical and subtropical world. Sleeping sickness, caused by two subspecies of Trypanosoma brucei, is endemic to areas of sub-Saharan Africa, while Chagas' disease, a manifestation of Trypanosoma cruzi infection, is prevalent throughout Central and South America. In addition, many species of Leishmania are responsible for a range of cutaneous and visceral diseases, causing ulcers, destructive lesions and kalaazar, a lethal infection of the viscera. These diseases cause severe public health and economic burdens on populations that are often already caught in a tragic cycle of poverty, poor nutrition and disease. Collectively, parasites of the trypanosomatid family infect 30 million people worldwide (~500 million live in endemic areas), and account for ~130K deaths annually. […]
# Two uL of TbPYK/substrate buffer (columns 1-3, 5-48) are dispensed into Greiner white solid bottom 1536-well assay plates; column 4 receives only TEA buffer as 0x TbPYK controls. […] Kinase-Glo Plus reagent is added (3 uL) and plates incubated for 10 minutes, before being transferred to a ViewLux high-throughput CCD imager (PerkinElmer) wherein single end-point measurements of luminescence are acquired using a clear filter. […]
# Potency is the fitted concentration of half-maximal effect.
compound,measurement,value
Cc1cc(SC(NC(=O)c2ccccc2)C(Cl)(Cl)Cl)nc(C(C)C)n1 (stereo unspecified),Potency,active: 17.8 µM
